B1: COV44-62 Fab (Fab, V domains shown)
VH: QMQLMQSGAEVKKPGASVTVSCKASGDTFSDYRIHWVRQAPGQGLEWMGRMNPKSGDTNFAQKFQGRVTMTRDMSINTAYMTLSGLTFDDTALYYCASLLIVGGFDPLDDFEVWGQGTMVTISS
VL: QSALTQPPSASGSPGQSVTISCSGTSSDVGGYNFVSWYQHHPGKAPKILIYEVTKRPSGVPDRFSGSKSGNTASLTVSGLQAEDEADYYCSSYGGTNNLLFGGGTKLTVL
B2: COV44-79 Fab (Fab, V domains shown)
VH: QVQLVESGGGVVQPGRSLRLSCAASGLTFSGYAMHWVRQAPGKGLEWVAVISRDARNKYYADSVKGRFTISRDNSKKTVYLEMNSLRVEDTAVYYCAILIIPGITEPGSPDALDIWGQGTMVSVSS
VL: DIQMTQSPSSMSASVGDRVTITCRASQDISKWLAWYQQRPGKAPKLLIYAASSLQSGVPSRFSGSGSGTDFTLTISSLQPEDFATYYCQQASSFPWSITFGQGTRLEIR

Target: N-terminally biotinylated peptide of SARS-CoV-2 S (808-…-827) (SARS-CoV-2 Wuhan-Hu-1, biotin on the N-terminus)
Details: both partners purified

Row | Binder | binding result
1 | B1 | binds
2 | B2 | binds

Source: publication PMC11094058, “Functional and antigenic characterization of SARS-CoV-2 spike fusion peptide by deep mutational scanning” (Nature Communications, 2024)
